A mixed list of measured activities; the numbers were collected in NIAID ChemDB.

Common to all: tests in culture; agent: Herpes simplex virus 1; measure: inhibition

Inhibition is in % at the dose shown (toxicity tests: loss of growth or viability).

smiles | strain | cells | read by | dose | value
O=[N+]([O-])c1ccccc1S(=O)(=O)n1c(CCc2ccccn2)nc2cc(Cl)c(Cl)cc21 | - | - | plaque count | 2 µg/mL | 0%
O=c1ccn([C@@H]2O[C@H](CO)[C@@H](O)[C@@H]2F)c(=O)[nH]1 | F | VERO | virus yield | 0.1 µM | 74%
COC(=O)/C=C/c1cn([C@H]2C[C@H](O)[C@@H](CO)O2)c(=O)[nH]c1=O | - | HEP-2 | cytopathic effect | 0.3 µg/mL | ≥25%
CC(=O)N[C@@H](CC(C)C)C(=O)N[C@@H](CC(C)C)C(=O)N[C@H](C=O)CCCN=C(N)N | Fukuda | CV-1 | plaque count | 10 µM | 28%
Cc1ccc2c(Cl)c3cnc4c(cnn4-c4ccccc4)c3nc2n1 | - | - | virus yield | 50 µM | 11%
CSC(=Nc1ccc(Oc2ccc(/C=C(/Nc3ccccc3)SC)cc2)cc1)Nc1ccccc1 | - | VERO | plaque count | 30 µM | <50%
Nc1nc2c(ncn2COCCO)c(=O)[nH]1 | VL8737 | HL | virus yield | 1 µg/mL | 17%
O=C(O)CP(=O)(O)O | - | BSC-1 | plaque count | 200 µg/mL | 40%
COc1ccc(NC(=O)Nc2ccc(C)cc2)cc1NC(=O)Nc1ccc(C)cc1 | - | VERO | plaque count | 5 µM | <50%
C/C=C/c1cn([C@H]2C[C@H](O)[C@@H](CO)O2)c(=O)[nH]c1=O | B2006 (TK-) | HELA BU | plaque count | 10 µM | 0%
C=Cc1c(C)c2cc3nc(c(CC(=O)O)c4nc(cc5[nH]c(cc1[nH]2)c(C)c5CC)C(C)=C4C(=O)O)[C@@H](CCC(=O)O)[C@@H]3C | KOS | - | plaque count | 45.33 µM | 90%
O=c1[nH]c(=O)n([C@H]2C[C@H](O)[C@@H](CBr)O2)cc1CCBr | - | HEP-2 | cytopathic effect | 30 µg/mL | ≥25%
Cc1cn([C@@H]2O[C@H](CO)[C@@H](O)[C@@H]2F)c(=O)[nH]c1=O | F | VERO | virus yield | 0.5 µM | 68%
CCCc1cn([C@H]2C[C@H](O)[C@@H](CO)O2)c(=O)[nH]c1=O | KOS | HELA BU | plaque count | 10 µM | 93%
Clc1ccc2nc3c(cnc4c3cnn4-c3ccccc3)c(Cl)c2c1 | - | - | virus yield | 50 µM | 60%
N=c1ncn(CC2CCCCC2)c2nc[nH]c12 | - | BSC-1 | plaque count | 12 µg/mL | 0%
NC(N)N/N=C1\C(=N\NC(N)N)Cc2ccccc21 | MP | HEP-2 | plaque count | 30 µM | inactive
Nc1ccn([C@H]2O[C@@H](CO)[C@H](O)[C@H]2F)c(=O)n1 | F | VERO | virus yield | 10 µM | 97.8%
NC(N)N/N=C1/C/C(=N\NC(N)N)c2ccccc21 | MP | HEP-2 | plaque count | 30 µM | inactive
CC(C)[C@H](NC(=O)[C@H](CCCN=C(N)N)NC(=O)N[C@@H](Cc1ccccc1)C(=O)O)C(=O)N[C@H](C=O)CCCN=C(N)N | Fukuda | CV-1 | plaque count | 10 µM | 23%
O=c1[nH]c(=O)n([C@@H]2O[C@H](CO)[C@@H](O)[C@@H]2F)cc1I | KOS | PRK | cytopathic effect | 0.02 µg/mL | ≥25%
CC(=O)NC1C=CN(c2cn(C(O)CP(=O)(O)O)nn2)C(=O)N1 | TK- ACV-r KOS | HEL | - | 100 µM | 0%
CSc1cnc(=O)n([C@H]2C[C@H](O)[C@@H](CO)O2)c1 | KOS | HeLa | plaque count | 400 µM | 98%
CN1C(=O)NC(=O)N([C@H]2C[C@H](O)[C@@H](CO)O2)C1(C)C | 42D | BHK-21 | plaque count | 25 µM | 95%
C#C[C@H]1O[C@@H](n2cc(C)c(=O)[nH]c2=O)C[C@@H]1O | KOS | HELA BU | plaque count | 25 µM | 4%
Nc1nc2c(ncn2COC(CO)CO)c(=O)[nH]1 | KOS mutant PFA-R3 | WI-38 | plaque count | 1.8 µM | 90%
O=[N+]([O-])c1ccc(NC(=S)Nc2ccc(Oc3ccc(NC(=S)Nc4ccc([N+](=O)[O-])cc4)cc3)cc2)cc1 | - | VERO | plaque count | 5 µM | 0%
CCCCCC[C@@H]([C@H](C)O)n1cnc2c(N)ncnc21 | - | HELA F | - | 50 µM | 90%
COc1ccc(NC(=S)Nc2ccc(Cl)cc2)cc1NC(=S)Nc1ccc(Cl)cc1 | - | VERO | plaque count | 5 µM | 0%
O=c1[nH]c(=O)n([C@H]2C[C@H](O)[C@@H](CO)O2)cc1CCI | - | HEP-2 | cytopathic effect | 1 µg/mL | ≥25%
O=c1c2cccc(Cl)c2[nH]c2cc(O)cc(O)c12 | KOS | - | - | 10 µM | 50%
Clc1c2cnc3c(cnn3-c3ccccc3)c2nc2cccc(Br)c12 | - | - | virus yield | 50 µM | 30%
O=C(NNCc1cccc(O)c1O)c1ccccc1O | KOS | HEP-2 | PCR | 3.9 µM | 90%
COc1cccc2c1C(=O)c1c(O)c3c(c(O)c1C2=O)C[C@@](O)(C(=O)CO)C[C@@H]3O[C@H]1C[C@H](N)[C@H](O)[C@H](C)O1 | - | VERO | virus yield | 0.5 µM | 15%
O=c1ccn([C@H]2C[C@H](O)[C@@H](CO)O2)c(=O)[nH]1 | - | HeLa | virus yield | 50 µM | 80%
C/C=C/c1cn([C@H]2C[C@H](O)[C@@H](CO)O2)c(=O)[nH]c1=O | C42PFA-R | VERO | plaque count | 10 µM | 99%
COc1cccc(NS(=O)(=O)c2ccc(Oc3ccc(S(=O)(=O)Nc4cccc(OC)c4)cc3)cc2)c1 | - | VERO | plaque count | 5 µM | <50%
Nc1nc(=O)n([C@@H]2O[C@H](CO)[C@@H](O)[C@@H]2F)cc1I | F | VERO | virus yield | 0.5 µM | 99.08%
O=c1[nH]c(=O)n([C@H]2C[C@H](O)[C@@H](CO)O2)cc1I | - | HEP-2 | cytopathic effect | 0.3 µg/mL | ≥25%
CCc1cn([C@H]2C[C@H](O)[C@@H](CO)O2)c(=O)[nH]c1=O | KOS | HeLa | plaque count | 10 µM | 99.3%
Nc1ncnc2c1ncn2CCOCP(=O)(O)OP(=O)(O)COCCn1cnc2c(N)ncnc21 | McIntyre | Macrophages | plaque count | 1.6 µM | 70%
O=c1[nH]c(=O)n([C@H]2C[C@H](O)[C@@H](CO)O2)cc1CCCl | KOS | PRK | cytopathic effect | 0.14 µg/mL | ≥25%
Nc1nc2c(ncn2COCCO)c(=O)[nH]1 | 7401H | VERO | virus yield | 0.3 µg/mL | 98%
C/C=C/c1cn([C@@H]2O[C@H](CO)[C@@H](O)[C@@H]2O)c(=O)[nH]c1=O | C42PFA-R | VERO | plaque count | 250 µM | 65%
Clc1ncnc2nc(-c3cscn3)[nH]c12 | - | VERO | plaque count | 1 µg/mL | 0%

5 of the rows above, restated:

CCCCCC[C@@H]([C@H](C)O)n1cnc2c(N)ncnc21 ; cells: HELA F ; dose: 50 µM ; value: 90%
Nc1ccn([C@H]2O[C@@H](CO)[C@H](O)[C@H]2F)c(=O)n1 ; strain: F ; cells: VERO ; read by: virus yield ; dose: 10 µM ; value: 97.8%
Clc1ncnc2nc(-c3cscn3)[nH]c12 ; cells: VERO ; read by: plaque count ; dose: 1 µg/mL ; value: 0%
Nc1ncnc2c1ncn2CCOCP(=O)(O)OP(=O)(O)COCCn1cnc2c(N)ncnc21 ; strain: McIntyre ; cells: Macrophages ; read by: plaque count ; dose: 1.6 µM ; value: 70%
CC(C)[C@H](NC(=O)[C@H](CCCN=C(N)N)NC(=O)N[C@@H](Cc1ccccc1)C(=O)O)C(=O)N[C@H](C=O)CCCN=C(N)N ; strain: Fukuda ; cells: CV-1 ; read by: plaque count ; dose: 10 µM ; value: 23%

An empty or dashed field is not shown. "inactive" is the filed call at that dose; no cut-off is given. Lines come from different laboratories, so protocols vary.